PMC6024821, “Synthesis, Structure and Biological Activity of CIA and CIB, Two α-Conotoxins from the Predation-Evoked Venom of Conus catus” (2018)
“And” between values parts separate entries of the source, which are not always exact repeats. Equal entries are not always repeated.

Chains of the proteins cited; added tags and fusions are not shown. Lines headed by an entry give the natural chain unless they say otherwise; changes in a name come on top. Residues count along the entry.
UniProt P18916, 23-519 limits assumed: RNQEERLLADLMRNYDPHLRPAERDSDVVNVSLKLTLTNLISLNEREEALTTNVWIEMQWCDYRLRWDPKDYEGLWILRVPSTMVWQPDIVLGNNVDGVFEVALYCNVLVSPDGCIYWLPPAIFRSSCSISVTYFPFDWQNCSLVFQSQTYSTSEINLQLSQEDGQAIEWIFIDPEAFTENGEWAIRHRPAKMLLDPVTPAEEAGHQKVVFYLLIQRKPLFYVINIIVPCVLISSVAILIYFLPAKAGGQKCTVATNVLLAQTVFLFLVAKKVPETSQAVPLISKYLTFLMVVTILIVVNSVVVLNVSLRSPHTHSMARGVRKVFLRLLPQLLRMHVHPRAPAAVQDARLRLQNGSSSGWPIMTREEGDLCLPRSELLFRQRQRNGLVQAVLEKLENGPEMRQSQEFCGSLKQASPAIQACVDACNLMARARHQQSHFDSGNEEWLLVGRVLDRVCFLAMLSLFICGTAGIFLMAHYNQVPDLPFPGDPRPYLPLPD
UniProt P25108, 21-457 limits assumed: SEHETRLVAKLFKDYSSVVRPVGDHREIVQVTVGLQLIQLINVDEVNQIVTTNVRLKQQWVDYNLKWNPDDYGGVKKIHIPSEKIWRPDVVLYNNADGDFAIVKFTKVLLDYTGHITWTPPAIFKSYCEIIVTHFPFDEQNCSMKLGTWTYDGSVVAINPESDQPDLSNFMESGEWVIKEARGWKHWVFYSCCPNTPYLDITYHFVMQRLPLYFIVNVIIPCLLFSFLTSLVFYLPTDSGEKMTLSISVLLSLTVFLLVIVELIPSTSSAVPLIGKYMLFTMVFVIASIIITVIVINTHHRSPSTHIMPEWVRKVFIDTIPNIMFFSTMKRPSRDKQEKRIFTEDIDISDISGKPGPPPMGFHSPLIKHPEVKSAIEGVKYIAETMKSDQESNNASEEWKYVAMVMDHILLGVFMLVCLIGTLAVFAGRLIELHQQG
UniProt P25109, 24-501 partner limits assumed: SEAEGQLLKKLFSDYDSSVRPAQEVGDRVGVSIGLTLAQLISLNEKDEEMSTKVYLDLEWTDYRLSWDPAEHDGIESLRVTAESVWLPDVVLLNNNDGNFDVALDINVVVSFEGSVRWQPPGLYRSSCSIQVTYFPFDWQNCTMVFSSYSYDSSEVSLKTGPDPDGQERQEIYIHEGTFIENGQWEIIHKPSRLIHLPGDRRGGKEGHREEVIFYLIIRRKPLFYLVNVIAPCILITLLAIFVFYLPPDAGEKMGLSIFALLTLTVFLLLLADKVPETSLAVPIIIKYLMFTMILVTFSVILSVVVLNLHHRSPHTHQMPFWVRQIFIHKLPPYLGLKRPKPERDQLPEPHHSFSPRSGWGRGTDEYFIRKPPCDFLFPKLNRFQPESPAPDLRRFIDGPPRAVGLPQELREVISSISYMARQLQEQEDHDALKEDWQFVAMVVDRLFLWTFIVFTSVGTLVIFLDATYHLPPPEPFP
UniProt P25110, 22-517 limits assumed: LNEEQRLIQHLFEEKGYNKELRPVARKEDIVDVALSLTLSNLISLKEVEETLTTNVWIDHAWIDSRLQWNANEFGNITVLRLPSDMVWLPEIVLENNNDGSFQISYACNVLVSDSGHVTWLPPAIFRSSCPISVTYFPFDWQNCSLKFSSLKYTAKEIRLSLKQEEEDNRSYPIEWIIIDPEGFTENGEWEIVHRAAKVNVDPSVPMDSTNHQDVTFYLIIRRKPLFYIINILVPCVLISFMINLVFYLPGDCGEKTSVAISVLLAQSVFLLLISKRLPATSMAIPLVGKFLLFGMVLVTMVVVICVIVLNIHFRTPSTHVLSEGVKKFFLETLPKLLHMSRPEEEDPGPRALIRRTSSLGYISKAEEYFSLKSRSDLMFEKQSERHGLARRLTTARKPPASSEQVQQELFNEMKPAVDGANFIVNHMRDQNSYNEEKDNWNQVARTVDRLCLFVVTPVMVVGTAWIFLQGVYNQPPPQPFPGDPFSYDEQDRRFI
UniProt P04757, 26-499 limits assumed: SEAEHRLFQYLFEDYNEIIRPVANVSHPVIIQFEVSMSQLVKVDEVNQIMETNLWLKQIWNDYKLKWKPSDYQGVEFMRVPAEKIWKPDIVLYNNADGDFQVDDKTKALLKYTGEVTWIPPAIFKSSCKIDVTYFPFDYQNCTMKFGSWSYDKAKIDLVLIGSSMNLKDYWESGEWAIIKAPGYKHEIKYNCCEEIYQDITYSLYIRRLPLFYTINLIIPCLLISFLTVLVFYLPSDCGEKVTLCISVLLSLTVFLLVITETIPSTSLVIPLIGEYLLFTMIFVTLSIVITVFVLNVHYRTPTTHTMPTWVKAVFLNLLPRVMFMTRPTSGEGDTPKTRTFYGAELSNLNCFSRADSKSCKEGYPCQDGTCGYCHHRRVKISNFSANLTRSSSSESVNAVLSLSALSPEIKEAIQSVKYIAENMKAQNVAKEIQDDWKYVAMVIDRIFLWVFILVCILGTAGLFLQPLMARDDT
UniProt P12390, 25-500 limits assumed: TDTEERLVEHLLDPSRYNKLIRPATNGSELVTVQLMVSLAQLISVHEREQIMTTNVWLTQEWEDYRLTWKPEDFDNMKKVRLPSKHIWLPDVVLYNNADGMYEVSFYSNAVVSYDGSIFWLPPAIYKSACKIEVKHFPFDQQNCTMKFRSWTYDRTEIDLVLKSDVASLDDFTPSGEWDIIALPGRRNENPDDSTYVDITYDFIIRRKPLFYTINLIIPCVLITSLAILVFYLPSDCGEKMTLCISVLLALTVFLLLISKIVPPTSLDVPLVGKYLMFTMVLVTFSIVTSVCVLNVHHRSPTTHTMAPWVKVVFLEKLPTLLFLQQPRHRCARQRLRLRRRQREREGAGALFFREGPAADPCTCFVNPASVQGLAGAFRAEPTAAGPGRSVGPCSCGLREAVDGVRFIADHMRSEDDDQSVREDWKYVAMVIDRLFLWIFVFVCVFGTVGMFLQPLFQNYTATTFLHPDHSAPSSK
UniProt Q05941, 23-502 limits assumed: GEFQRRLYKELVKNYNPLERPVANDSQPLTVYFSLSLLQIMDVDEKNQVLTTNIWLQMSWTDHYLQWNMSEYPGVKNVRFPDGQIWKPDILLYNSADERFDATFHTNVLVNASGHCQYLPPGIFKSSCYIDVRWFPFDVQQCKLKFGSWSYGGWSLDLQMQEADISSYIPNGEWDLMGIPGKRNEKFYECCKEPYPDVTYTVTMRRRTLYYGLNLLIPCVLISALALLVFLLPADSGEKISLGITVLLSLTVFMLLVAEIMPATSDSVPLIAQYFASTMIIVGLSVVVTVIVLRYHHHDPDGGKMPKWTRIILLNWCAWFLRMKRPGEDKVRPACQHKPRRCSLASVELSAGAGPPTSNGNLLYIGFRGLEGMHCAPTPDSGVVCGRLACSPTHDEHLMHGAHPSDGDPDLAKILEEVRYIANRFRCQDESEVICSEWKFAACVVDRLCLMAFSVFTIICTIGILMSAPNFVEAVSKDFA

Tests used:
[1] = biological target: muscle type (α1)2δγβ1 nAChR (Rattus norvegicus, UniProt P18916+P25108+P25109+P25110); conditions: rat (α1)2δγβ1 in Xenopus laevis oocytes
[2] = biological target: neuronal nAChR subtype α3β2 (Rattus norvegicus, UniProt P04757+P12390); conditions: read-out: IC50, inhibition of neuronal nAChR α3β2; rat α3β2 in Xenopus laevis oocytes; -70 mV; 2-s pulses of 100 µM ACh; 3-min preincubation with toxin in static bath; ND96 pH 7.4; Hill fit; mean of at least 3 oocytes
[3] = biological target: neuronal nAChR subtype α7 (Rattus norvegicus, UniProt Q05941); conditions: read-out: IC50, inhibition of neuronal nAChR α7; rat α7 in Xenopus laevis oocytes; -70 mV; 2-s pulses of 100 µM nicotine; 3-min preincubation with toxin in static bath; ND96 pH 7.4; Hill fit; mean of at least 3 oocytes
[4] = test system: neuronal nAChR subtype α4β2; conditions: at concentrations up to 10 μM; rat α4β2 in Xenopus laevis oocytes; 100 µM ACh; 3-min preincubation

Row | SMILES | activity on muscle nAChR ([1]; at concentrations up to 10 μM, 100 µM ACh, 3-min preincubation) | IC50 [2] [nM] | IC50 [3] [nM] | activity on α4β2 nAChR [4] | IC50 ([1]; read-out: IC50, block of muscle type nAChR, -70 mV, 2-s pulses of 100 µM ACh, 3-min preincubation with toxin in static bath, ND96 pH 7.4, Hill fit, mean of at least 3 oocytes)
1 | CC(C)C[C@@H]1NC(=O)[C@H](Cc2c[nH]cn2)NC(=O)[C@@H]2CSSC[C@H](NC(=O)CN)C(=O)N[C@@H](CSSC[C@@H](C(N)=O)NC(=O)[C@H](C)NC(=O)[C@H](CC(N)=O)NC(=O)[C@@H]3CCCN3C(=O)[C@H](Cc3c[nH]cn3)NC(=O)[C@H](CCC(=O)O)NC1=O)C(=O)N[C@@H](CO)C(=O)N[C@@H](CC(N)=O)C(=O)N1CCC[C@H]1C(=O)N[C@@H](C(C)C)C(=O)N2 | No activity was detected | 129 | 1510 | No activity was detected | –
2 | C[C@@H]1NC(=O)[C@@H]2CCCN2C(=O)[C@H](Cc2c[nH]cn2)NC(=O)[C@@H]2CSSC[C@@H](C(N)=O)NC(=O)[C@H](CO)NC(=O)[C@H](Cc3ccccc3)NC(=O)[C@H](Cc3c[nH]cn3)NC(=O)[C@H](CCCCN)NC(=O)CNC(=O)[C@H](CSSC[C@H](NC(=O)[C@H](CCCNC(=N)N)NC(=O)CNC(=O)[C@@H](N)CC(N)=O)C(=O)N2)NC1=O | – | – | – | – | 5.7 nM and 5 nM
